# In publication PMC7887755, “Structure–Activity Relationships of Pyrazolo[1,5-a]pyrimidin-7(4H)-ones as Antitubercular Agents” (ACS Infectious Diseases, 2021):
# System: WT H37Rv
# Assay type: cell-based
# Details: 10× MIC added to 10^9 CFUs of H37Rv, 24 h
structure (smiles),measurement,value
"Cc1nn2c(=O)cc(-c3ccc(F)c(F)c3)[nH]c2c1-c1ccccc1 [Compound P19, 5-(3,4-Difluorophenyl)-2-methyl-3-phenylpyrazolo[1,5-a]pyrimidin-7(4H)-one]",degradation of compound by Mtb,about 10%
